# Experiments:
# [1] = target: purified Stx1 (Shiga toxin type 1 holotoxin) (Escherichia coli) (UniProt P08026); assay: cell-based or functional assay; details: scale: dilution factor
# [2] = target: purified Stx1 (Shiga toxin type 1 holotoxin) (Escherichia coli) (UniProt P08026); details: scale: fold dilution of the 13C4 MAb
substance,measurement,setting,value
murine 13C4 monoclonal antibody,inhibition of Stx1 binding to Gb3-coated plates,[1],> 8000
same,IC50 (read off the curve),[2],1000
